Measured values from several laboratories, pooled; numbers as filed in NIAID ChemDB.

All rows: tests on isolated targets; species: HIV-1; protein: Tat:TAR/LTR

Percent inhibition refers to the dose given; in toxicity tests it is the harm to the cells. Conditions beyond the fields shown may differ between rows. An empty or dashed field is not shown. ICn is the concentration giving n% inhibition.

{"SMILES": "NCCCC[C@@H]1NC(=O)[C@@H](CCCN=C(N)N)NC(=O)[C@H](Cc2ccccc2)NC(=O)[C@H](CCCN=C(N)N)NC(=O)[C@H](CCCN=C(N)N)NC1=O", "method": "FRET", "endpoint": "Ki", "value": "15.27 µM"}
{"SMILES": "NCCCOc1ccc(-c2cc3ccccc3s2)cc1CNCCCCN=C(N)N", "method": "FRET", "endpoint": "Ki", "value": "0.168 µM"}
{"SMILES": "NCCCC[C@H]1NC(=O)[C@H](CCCN=C(N)N)NC(=O)[C@H](Cc2ccccc2)NC(=O)[C@H](CCCN=C(N)N)NC(=O)[C@H](CCCN=C(N)N)NC1=O", "method": "FRET", "endpoint": "Ki", "value": "17.07 µM"}
{"SMILES": "Nc1cc2c(=O)c(C(=O)O)cn(C3CC3)c2cc1N1CCN(c2cccc(C(F)(F)F)c2)CC1", "method": "gel", "endpoint": "Ki", "value": "3.8 µM"}
{"SMILES": "NCCCCN(CCCN)CCCNC(=O)c1c2ccccc2nc2ccccc12", "method": "gel", "endpoint": "IC50", "value": "0.25 µM"}
{"SMILES": "CNC(=O)c1cc2cc(-c3ccc(OCCCN)c(CNCC4CCNCC4)c3)ccc2o1", "method": "FRET", "endpoint": "Ki", "value": "3.36 µM"}
{"SMILES": "NCCCCN(CCCN)CCCN1C(=O)c2cccc3cc([N+](=O)[O-])cc(c23)C1=O", "method": "gel", "endpoint": "IC50", "value": "0.03 µM"}
{"SMILES": "NCCCOc1ccc(-c2ccc3occc(=O)c3c2)cc1CNCC1CCNCC1", "method": "FRET", "endpoint": "Ki", "value": "3.04 µM"}
{"SMILES": "NCCN(CCN)CCNc1c2ccccc2nc2ccccc12", "method": "gel", "endpoint": "IC50", "value": "0.17 µM"}
{"SMILES": "NCCCC[C@@H]1NC(=O)[C@H](CCCN=C(N)N)NC(=O)[C@@H](Cc2ccccc2)NC(=O)[C@H](CCCN=C(N)N)NC(=O)[C@H](CCCN=C(N)N)NC1=O", "method": "FRET", "endpoint": "Ki", "value": "12.73 µM"}
{"SMILES": "NCCCOc1ccc(-c2ccccc2)cc1CNCC1CCNCC1", "method": "FRET", "endpoint": "Ki", "value": "1.19 µM"}
{"SMILES": "NCCCCN(CCCN)CCCNc1c2ccccc2nc2ccccc12", "method": "gel", "endpoint": "IC50", "value": "0.073 µM"}
{"SMILES": "NC(=O)c1ccn2c1CS[C@@H]2c1cccnc1", "tested at": "100 µM", "endpoint": "inhibition", "value": "~40%"}
{"SMILES": "NCCCOc1ccc(-c2cccs2)cc1CNCCCCN=C(N)N", "method": "FRET", "endpoint": "Ki", "value": "0.86 µM"}
{"SMILES": "COc1ccc2nc3cc(Cl)ccc3c(NCCCCCN(CCCCN)CCCCN)c2c1", "method": "gel", "endpoint": "IC50", "value": "0.03 µM"}

2 of the rows above, restated:

| SMILES | tested at | method | endpoint | value |
|---|---|---|---|---|
| NCCCC[C@@H]1NC(=O)[C@H](CCCN=C(N)N)NC(=O)[C@@H](Cc2ccccc2)NC(=O)[C@H](CCCN=C(N)N)NC(=O)[C@H](CCCN=C(N)N)NC1=O |  | FRET | Ki | 12.73 µM |
| COc1ccc2nc3cc(Cl)ccc3c(NCCCCCN(CCCCN)CCCCN)c2c1 |  | gel | IC50 | 0.03 µM |